{"source": "ChEMBL document CHEMBL3853327", "about": "(J Med Chem, 2016)", "target": "Human immunodeficiency virus type 1 reverse transcriptase (Human immunodeficiency virus 1, UniProt Q72547, K103N/Y181C)", "test": "Inhibition of recombinant HIV1 reverse transcriptase K103N/Y181C double mutant using DIG-dUTP/biotin-dUTP/dTTP assessed as suppression of biotin-dUTP incorporation after 1 hr by ELISA"}
{"smiles": "Cc1cc(C#N)cc(C)c1Oc1nc(Nc2ccc(C#N)cc2)nc(N)c1Br", "note": "[ETRAVIRINE]", "values": [{"measurement": "IC50", "result": 90, "unit": "nM"}]}
